Source: patent US10456414B2, “Methods for treating HCV” (priority 2011, dated 2019)

Key:
[1] = tested on: Genotype 1a replicon, NS5A L31M
[2] = tested on: Genotype 1a replicon, NS5A M28T
[3] = tested on: Genotype 1a replicon, NS5A Q30R
[4] = tested on: Genotype 1a replicon, NS5A Y93H
[5] = tested on: GT2a NS5B S282T mutant replicon; assay type: cell-based, HCV
[6] = tested on: GT4a NS5B S282T mutant chimeric replicon; assay type: cell-based, HCV
[7] = tested on: GT2b NS5B S282T mutant chimeric replicon; assay type: cell-based, HCV
[8] = tested on: GT3a NS5B S282T mutant chimeric replicon; assay type: cell-based, HCV
[9] = tested on: Genotype 1a replicon, NS5A Q30E
[10] = tested on: Genotype 1a replicon, NS5A Q30H
[11] = tested on: panel of NS5A mutant replicons; assay: Transient replicon assay, panel of NS5A mutant replicons; assay type: cell-based, HCV; details: seven NS5A mutants, genotype 1a
Source text: NS5A mutant replicons were created by synthesizing a sequence encoding the first 149 amino acids of NS5A containing the desired mutation flanked by a 5′ and 3′ BsrGI and EcoRI site, respectively (Genscript, Piscataway, N.J.). Synthesized fragments were then cloned by standard molecular biology techniques into a 1a Rluc replicon plasmid modified to enable cloning into unique BsrGI and EcoRI restriction sites. Mutations were confirmed by DNA sequencing.
RNA was transfected into Huh-lunet cells using the method of Lohmann et al. (Lohmann et al., Science 1999; 285 (5424):110-3) Briefly, cells were trypsinized and washed twice with PBS. A suspension of 4×10^6 cells in 400 μL of PBS were mixed with 5 μg of RNA and subjected to electroporation using settings of 960 μF and 270 V. Cells were transferred into 40 mL of pre-warmed culture medium and then seeded into 96-well or 384-well plates. Compounds were 3-fold serially diluted in 100% DMSO and added to cells to achieve a final DMSO concentration of 0.5%. Cells were treated for three days after which culture media were removed, cells were lysed, and Renilla luciferase activity was quantified using commercially available reagents (Promega) and a Victor or Envision instrument (Perkin Elmer, Waltham, Mass.).
Resistance fold changes were calculated as the ratio of mutant to wild-type replicon EC50. […]

[12] = tested on: GT1b NS5B S282T mutant replicon; assay type: cell-based, HCV

## NC(=O)c1ncn([C@@H]2O[C@H](CO)[C@@H](O)[C@H]2O)n1 [Ribavirin, 1-β-D-ribofuranosyl-1H-1,2,4-Triazole-3-carboxamide, reference compound]
[1]
  Fold Shift in EC50 (DRM EC50/1a-H77 EC50): 0.5
[2]
  Fold Shift in EC50 (DRM EC50/1a-H77 EC50): 0.4
[3]
  Fold Shift in EC50 (DRM EC50/1a-H77 EC50): 0.8
[4]
  Fold Shift in EC50 (DRM EC50/1a-H77 EC50): 1.0
[5]
  Fold change: 0.1
[6]
  Fold change: 0.1
[7]
  Fold change: 0.2
[8]
  Fold change: 0.2
[9]
  Fold Shift in EC50 (DRM EC50/1a-H77 EC50): 0.8
[10]
  Fold Shift in EC50 (DRM EC50/1a-H77 EC50): 0.7
[11]
  increase (shift) in EC50 for NS5A mutants: no significant shift
[12]
  Fold change: 0.2
